Results of unrelated studies side by side (data: NIAID ChemDB).

All rows: tests in culture

ECn is the concentration giving n% inhibition of infection, replication or growth. A number after MIC or MFC names an inhibition level or a share of isolates. Lines come from different laboratories, so protocols vary. Blank or dashed fields: not listed here. Two numbers with a dash give a range or band.

SMILES	strain or isolate	agent	read-out	read by	cell line	result
CC(=O)NC[C@H]1CN(c2ccc(-c3cc(CO)on3)c(F)c2)C(=O)O1	UC9217	Enterococcus faecalis	MIC	-	-	2 µg/mL
Cc1cc(CCCCCOc2c(Cl)cc(C3=NCCO3)cc2Cl)on1	OHIO-1 (CVB2)	Enterovirus	EC50	plaque count	VERO	0.018 µg/mL
Cc1c(NC2CC2)c(F)cc2c(=O)c(C(=O)O)cn(-c3cc(N)c(F)cc3F)c12	W1140	Enterococcus faecium	MIC	-	-	2 µg/mL
CC(CCOc1ccc(-c2ccc(Cl)cc2)cc1)CCN1CCN(c2ccncc2)C1=O	Clinical isolate 71 (4643) genotype C	Enterovirus	EC50	cytopathic effect	RD	0.0093 µM
COC(=O)n1ccc(-c2ccc(N3C[C@H](CNC(C)=O)OC3=O)cc2F)n1	UC9217	Enterococcus faecalis	MIC	-	-	8 µg/mL
Cc1cc(OCCCc2ccc(CO)nn2)cc(C)c1-c1noc(C(F)F)n1	-	Enterovirus	EC50	cytopathic effect	HeLa	0.033–0.659 µg/mL
CNc1c(F)cc2c(=O)c(C(=O)O)cn(-c3cc(N)c(F)cc3F)c2c1C	W1418	Enterococcus faecium	MIC	-	-	32 µg/mL
C=CCn1cc(-c2ccc(N3C[C@H](CNC(C)=O)OC3=O)cc2F)cn1	UC9217	Enterococcus faecalis	MIC	-	-	2 µg/mL
O=C1N(CCCCCOc2ccc(-c3ccc(Cl)cc3)cc2)CCN1c1ccncc1	Clinical isolate 71 (4643)	Enterovirus	EC50	cytopathic effect	RD	0.038 µM
Cc1cc(OCCCc2ccc(Br)nn2)cc(C)c1-c1noc(C(F)F)n1	-	Enterovirus	EC50	cytopathic effect	HeLa	0.033–0.659 µg/mL
CN(C)c1cc(NC(=O)CNC(C)(C)C)c(O)c2c1C[C@H]1C[C@H]3[C@H](N(C)C)C(=O)C(C(N)=O)=C(O)[C@@]3(O)C(=O)C1=C2O	20 strains (vancomycin-resistant)	Enterococcus faecalis	MIC50	-	-	0.12 µg/mL
Cc1cc(OCCCc2ccc(=S)[nH]n2)cc(C)c1-c1noc(C(F)F)n1	-	Enterovirus	EC50	cytopathic effect	HeLa	0.033–0.659 µg/mL
CC(=O)NC[C@H]1CN(c2ccc(-c3ccn(C(C)=O)n3)c(F)c2)C(=O)O1	UC9217	Enterococcus faecalis	MIC	-	-	8 µg/mL
CCc1ccc(CCCOc2c(C)cc(-c3noc(C)n3)cc2C)nn1	-	Enterovirus	EC50	cytopathic effect	HeLa	0.033–0.659 µg/mL
Cc1c(NC(C)C)c(F)cc2c(=O)c(C(=O)O)cn(-c3cc(N)c(F)cc3F)c12	W1140	Enterococcus faecium	MIC	-	-	4 µg/mL

A second listing of 2 rows from above:

SMILES	strain or isolate	agent	read-out	read by	cell line	result
Cc1cc(OCCCc2ccc(=S)[nH]n2)cc(C)c1-c1noc(C(F)F)n1	-	Enterovirus	EC50	cytopathic effect	HeLa	0.033–0.659 µg/mL
Cc1cc(CCCCCOc2c(Cl)cc(C3=NCCO3)cc2Cl)on1	OHIO-1 (CVB2)	Enterovirus	EC50	plaque count	VERO	0.018 µg/mL